Results of unrelated studies side by side (data: NIAID ChemDB).

Common to all: host cell toxicity; cells: Jurkat cells; read-out: CC50

Blank or dashed fields: not listed here. Neighbouring rows are from separate reports. a–b is a range or a potency band. CCn: concentration that lowers growth or viability of the cells by n%.

compound	method	value
Cn1cc(NC(=O)c2cc(NC(=O)c3cc(NC=O)cn3C)cn2C)cc1C(=O)NCCC(=N)N	-	20 µM
Cc1[nH]c2ccccc2c1CCNCc1ccc(/C=C/C(=O)NO)cc1	fluorescence	>5 µM
NCCCC[C@H](COC(=O)O)NC(=O)CN(CCCCN)C(=O)OC[C@@H](N)CCCN=C(N)N	-	>100 µM
COc1c(/C=C/C(=O)c2ccc(Cl)cc2)ccc2ccccc12	MTT	3–15 µM
NC(=O)n1c(O)c(C(=O)c2cccs2)c2cc(Cl)ccc21	trypan blue	73 µM
COc1ccc(C(=O)/C=C/c2ccc3ccccc3c2OC)cc1	MTT	3–15 µM
COC(=O)C1=C2Nc3ccccc3[C@@]23CCN2C[C@]4(C[C@@H]5C[C@]67CCO[C@H]6CCC6NC[C@@]8(c9cccc(OC)c9N(C4)[C@@H]58)[C@@H]67)[C@@H]4OCCC4(C1)[C@H]23	absorbance	>56.94 µM
COc1cc2c(cc1OCCC(=O)Nc1cc(C(=O)Nc3cc(C(=O)Nc4cc(C(=O)Nc5cc(C(=O)NCCC(=N)N)n(C)c5)n(C)c4)n(C)c3)n(C)c1)N=C[C@@H]1CCCN1C2=O	-	0.75 µM
C/C(=N\NC(=O)c1ccccc1)c1cccc(/C(C)=N/NC(=O)c2ccccc2)n1	MTT	>100 µM
C[C@H]1[C@@H](OC(=O)CCC(=O)O)O[C@@H]2O[C@@]3(C)CC[C@H]4[C@H](C)CC[C@@H]1[C@@]24OO3	-	>0.6 µM
O=c1cc(-c2cccc3c2Sc2ccccc2S3)oc(N2CCOCC2)c1	MTS	>10 µM
CCCCC(=O)OC1CC(OC(C)C(C)C(O)C(C)C(O)C(C)C2OC(=O)/C=C/CC(O)CC(O)CC(O)CCC(C)C(O)C[C@@]3(O)O[C@H](CC(O)CC(OC(=O)CC(=O)O)CCCC(O)C4OC4C2C)C[C@H](O)[C@H]3O)OC(C)C1O	-	>100 µg/mL
O=C(NCc1cccs1)c1nn2c(c1Cl)N[C@H](c1ccco1)C[C@@H]2C(F)(F)F	ATP	>100 µM
CCOC(=O)P(=O)(O)OC[C@H]1O[C@@H](n2cc(C)c(=O)[nH]c2=O)C[C@@H]1N=[N+]=[N-]	-	>100 µM
C[C@H]1[C@H](O)[C@@H](C)/C=C/C=C/C=C/C=C/C=C/C=C/C=C/[C@H](O[C@@H]2O[C@H](C)[C@@H](O)[C@H](N)[C@@H]2O)C[C@@H]2O[C@](O)(C[C@@H](O)C[C@@H](O)CC[C@H](O)[C@@H](O)C[C@@H](O)CC(=O)O[C@H]1C)C[C@H](O)[C@H]2C(=O)O	MTT	>10 µM
COc1cc(OC)c2c(=O)cc(-c3ccc(OCCCN4CCCCC4)c(NC(=O)CCCN(C)C)c3)n(C)c2c1	MTT	>100 µM
COc1ccc(-c2cc(=S)ss2)cc1	-	>100 µM
COc1cc(OC)c2c(=O)cc(-c3ccc(OCCCN)c(N)c3)n(C)c2c1	MTT	>100 µM
COc1c(/C=C/C(=O)c2cccc([N+](=O)[O-])c2)ccc2ccccc12	MTT	3–15 µM
COc1cc(OC)c2c(=O)cc(-c3ccc(OCCCN4CCN(C)CC4)c(N)c3)n(C)c2c1	MTT	>100 µM
COc1cc2c(cc1OCCC(=O)Nc1cc(C(=O)Nc3cc(C(=O)NCCC(=N)N)n(C)c3)n(C)c1)N=C[C@@H]1CCCN1C2=O	-	76 µM
CCC(O)[NH+]1CC[NH+](C(O)CC)CC1.[Cl][Pt-2]([Cl])([Cl])([Cl])([Cl])[Cl]	fluorescence	>10 µM
CNc1cc2c(=O)c(C(=O)O)cn(C)c2cc1N1CCN(c2ccccn2)CC1	MTT	58.36 µM

A second listing of 2 rows from above:

compound | method | value
C[C@H]1[C@@H](OC(=O)CCC(=O)O)O[C@@H]2O[C@@]3(C)CC[C@H]4[C@H](C)CC[C@@H]1[C@@]24OO3 | - | >0.6 µM
Cn1cc(NC(=O)c2cc(NC(=O)c3cc(NC=O)cn3C)cn2C)cc1C(=O)NCCC(=N)N | - | 20 µM